The values that follow come from article PMC3376133, “Glutamine versus Ammonia Utilization in the NAD Synthetase Family” (PLoS ONE, 2012).

The subject of data set [1] is Nc1ncnc2c1ncn2[C@@H]1O[C@H](COP(=O)(O)OP(=O)([O-])OC[C@H]2O[C@@H]([n+]3cccc(C(=O)O)c3)[C@H](O)[C@@H]2O)[C@@H](O)[C@H]1O. Put plainly: purified protein. Conditions: fixed 2 mM ATP and 40 mM NH3, 10 mM MgCl2, pH 7.5, 37°C.
The test system of data set [2] is Nc1ncnc2c1ncn2[C@@H]1O[C@H](COP(=O)(O)OP(=O)(O)OP(=O)(O)O)[C@@H](O)[C@H]1O. Put plainly: purified protein. Conditions: fixed 2 mM NaAD and 40 mM NH3, 10 mM MgCl2, pH 7.5, 37°C.

“st_NADS (Salmonella enterica subsp. enterica serovar Typhimurium str. LT2; S48N)”: the Km (usually the substrate concentration at which the rate is half of its maximum) was determined as 118 ± 23 µM in data set [1] and 492 ± 80 µM in data set [2]. Besides, the results for the catalytic constant (kcat) in data set [1] and in data set [2] were 0.65 ± 0.02 s⁻¹ and 0.65 ± 0.03 s⁻¹, respectively.
